PubChem BioAssay AID1259414 | Drosophila RNAi Screening Center | 2018
The deposit covers about 24,000 reagents; shown is an unselected part of those that have a named target and a result. Over the whole deposit, about 1,210 (5%) are marked active. 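Inactive calls also include excluded dsRNAs with several or no targets, genes unexpressed in JW18, and well A1, regardless of score.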 Reagents against one gene are numbered here.

Aim: 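Host factors increasing or decreasing Wolbachia levels in cultured fly cells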 (primary screen)
Cells: Drosophila JW18 cells infected with Wolbachia
Reagent: long dsRNA against Drosophila genes, 0.25 µg dsRNA per well of a 384-well plate
Timing: 5 days
Conditions: cells persistently infected with Wolbachia before knock-down; no added drug
Read-out: 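Automated imaging of bacterial rRNA staining divided by host cell count, reported as plate-normalised robust z-score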
Direction: Wolbachia per cell robust z: higher = more Wolbachia per host cell than the plate typical
Hit rule: 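Active if absolute robust z reaches 1.5 in two or more of three replicates, leaving out multi- or no-target dsRNAs, genes unexpressed in JW18 and A1 wells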

no.	gene knocked down	dsRNA no.	Wolbachia per cell robust z, rep 1	Wolbachia per cell robust z, rep 2	Wolbachia per cell robust z, rep 3	outcome
1	CG7453	1	-0.425	-0.728	0.0377	inactive
2	CG7453	2	-0.622	-3.28	-0.634	inactive
3	CG33309	1	0.494	-0.889	-2.01	inactive
4	CG10910	1	-4.2	-2.24	-3.53	inactive
5	CG10910	2	-0.684	-2.23	-0.71	inactive
6	Erasp	1	-0.787	0.436	0.9	inactive
7	CG33635	1	0.523	0.887	0.536	inactive
8	CG42239	1	0.59	1.49	0.597	inactive
9	CG34404	1	-1.35	-1.67	-2.03	active
10	CG34404	2	-0.259	-0.0444	0.285	inactive
11	CG34404	3	-0.707	1.13	-0.18	inactive
12	Uggt	1	0.0622	0.142	0.277	inactive
13	Cpr64Aa	1	0.852	1.18	1.17	inactive
14	Cpr64Aa	2	1.81	0.416	2.34	inactive
15	crim	1	-3.55	0.901	1.39	inactive
16	spab	1	-0.993	-4.51	-0.27	inactive
17	mRpS26	1	0.819	0.92	1.26	inactive
18	mRpS26	2	-0.696	1.14	-0.858	inactive
19	CG42751	1	-1.22	-0.745	0.0299	inactive
20	Gs1l	1	0.49	0.21	1.52	inactive
21	CG5783	1	-0.745	-1.68	-0.767	inactive
22	CG4080	1	-8.43	0.0313	-2.75	active
23	dpr4	1	0.123	-0.661	-0.158	inactive
24	dpr4	2	-0.371	0.115	1	inactive
25	MED10	1	0.358	-1.11	0.489	inactive
26	CG30431	1	-5.57	0.354	0.258	inactive
27	CG30431	2	-0.536	-0.301	-0.437	inactive
28	Spc105R	1	3.33	4.57	-0.699	active
29	Spc105R	2	4.81	4.37	6.3	active
30	CG42748	1	-5.25	0.51	-0.961	inactive
31	CG42748	2	-0.711	0.325	-2.98	inactive
32	CG42748	3	-0.0646	-0.482	-0.519	inactive
33	CG42748	4	0.254	-1.56	0.153	inactive
34	mip40	1	-0.951	-1.01	0.945	inactive
35	CG14696	1	0.423	-1.95	1.46	inactive
36	Prdm13	1	1.37	0.439	-0.302	inactive
37	Spn28Dc	1	-0.9	0.548	0.298	inactive
38	Elp3	1	0.338	-0.213	-0.0603	inactive
39	CG10494	1	-5.57	-0.664	-2.42	active
40	CG10494	2	0.672	-0.299	-2.19	inactive
41	unpg	1	1.68	-1.02	0.826	inactive
42	unpg	2	-0.572	2.86	0.0136	inactive
43	mRpL15	1	0.389	0.0334	-0.915	inactive
44	mRpL15	2	0.556	0.282	-0.223	inactive
45	Ccp84Ag	1	0.466	-0.904	-2.58	inactive
46	Ccp84Ag	2	-0.262	0.355	0.382	inactive
47	Ccp84Ag	3	-0.969	-1.18	-0.391	inactive
48	Pus1	1	-1.62	-0.282	-4.6	active
49	Pus1	2	0.0329	0.394	0.769	inactive
50	Alg14	1	1.18	1.14	0.415	inactive
51	RabX5	1	-1.53	-0.136	-0.567	inactive
52	RabX5	2	1.73	0.373	0.405	inactive
53	mys	1	0.805	0.425	0.639	inactive
54	mys	2	-0.0227	0.925	2.1	inactive
55	CG6503	1	1.09	-0.977	-0.474	inactive
56	CG6503	2	0.672	-0.854	0.164	inactive
57	CG7963	1	0.019	-0.579	1.05	inactive
58	CG14118	1	0.0228	0.802	1.28	inactive
59	CG30274	1	0.42	-1	-0.0703	inactive
60	CG30274	2	0.342	0.714	-0.459	inactive
61	CG9945	1	-1.26	-0.603	-3.21	inactive
62	CG9945	2	-0.306	0.464	-0.713	inactive
63	ko	1	-0.275	-0.31	0.444	inactive
64	ko	2	0.532	0.431	-0.515	inactive
65	nAChRalpha2	1	0.452	0.69	-0.185	inactive
66	nAChRalpha2	2	-0.968	0.566	1.03	inactive
67	CG32564	1	-0.175	0.0392	0.187	inactive
68	CG32564	2	-0.41	-0.958	-0.315	inactive

Records listed so far with an active call (6):
gene knocked down	dsRNA no.	Wolbachia per cell robust z, rep 1	Wolbachia per cell robust z, rep 2	Wolbachia per cell robust z, rep 3	outcome
CG34404	1	-1.35	-1.67	-2.03	active
CG4080	1	-8.43	0.0313	-2.75	active
Spc105R	1	3.33	4.57	-0.699	active
Spc105R	2	4.81	4.37	6.3	active
CG10494	1	-5.57	-0.664	-2.42	active
Pus1	1	-1.62	-0.282	-4.6	active
